Fold change is the IC50 on the isolate divided by the IC50 on a reference virus; 1 = unchanged, higher = more resistant. Changes are given against the subtype B consensus. No active / inactive call. The values were gathered from many studies (numbered anew) with different assays, which the source does not name. Most viruses are clinical isolates; some are laboratory strains or clones with known resistance changes. Isolates with mixed residues are left out; stretches that were not sequenced show no change. Round top values that many isolates share are read here as limits; other very high values and 0.1 may be limits too.
Key:
Test in all cases: fold change of IC50 against reference virus; higher = more resistant
nevirapine = compound: Cc1ccnc2c1NC(=O)c1cccnc1N2C1CC1 [nevirapine]
Procedure: (§1)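 Cell-culture drug susceptibility tests of virus bearing the reverse transcriptase of each isolate, gathered from many studies.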

zidovudine = compound: Cc1cn([C@H]2C[C@H](N=[N+]=[N-])[C@@H](CO)O2)c(=O)[nH]c1=O [zidovudine]
Procedure: as §1

didanosine = compound: O=c1[nH]cnc2c1ncn2[C@H]1CC[C@@H](CO)O1 [didanosine]
Procedure: as §1

Test System: HIV-1 isolate 583 (reverse transcriptase changes: L74V K122E F214L A272P K277R M357T A376T A400T N447S D460N S468T S519N, study 13)
- fold change of IC50 against reference virus (nevirapine): 1
- fold change of IC50 against reference virus (zidovudine): 2
- fold change of IC50 against reference virus (didanosine): 8

Test System: HIV-1 isolate 600 (reverse transcriptase changes: L74V K102Q S162C T215Y, study 45)
- fold change of IC50 against reference virus (nevirapine): 1
- fold change of IC50 against reference virus (zidovudine): 1
- fold change of IC50 against reference virus (didanosine): 8

Test System: HIV-1 isolate 684 (reverse transcriptase changes: D67N K70R K122E Y181C F214L T215Y K219Q A272P K277R M357T A376T A400T N447S D460N S468T S519N, study 13)
- fold change of IC50 against reference virus (nevirapine): 112
- fold change of IC50 against reference virus (zidovudine): 5
- fold change of IC50 against reference virus (didanosine): 1

Test System: HIV-1 isolate 701 (reverse transcriptase changes: D67N K70R K122E F214L T215Y K219Q A272P K277R M357T A376T A400T N447S D460N S468T S519N, study 13)
- fold change of IC50 against reference virus (nevirapine): 1
- fold change of IC50 against reference virus (zidovudine): 150
- fold change of IC50 against reference virus (didanosine): 1.4

Test System: HIV-1 isolate 774 (reverse transcriptase changes: M41L L74V K122E F214L T215Y A272P K277R M357T A376T A400T N447S D460N S468T S519N, study 17)
- fold change of IC50 against reference virus (nevirapine): 1
- fold change of IC50 against reference virus (zidovudine): 33
- fold change of IC50 against reference virus (didanosine): 8.9

Test System: HIV-1 isolate 805 (reverse transcriptase changes: V35T T39E S48T K122E D123G K166R K173A Q174E T200A Q207E V245Q, study 99)
- fold change of IC50 against reference virus (nevirapine): 4
- fold change of IC50 against reference virus (zidovudine): 1
- fold change of IC50 against reference virus (didanosine): 0.9

Test System: HIV-1 isolate 853 (reverse transcriptase changes: L74V K122E Y181C F214L A272P K277R M357T A376T A400T N447S D460N S468T S519N, study 13)
- fold change of IC50 against reference virus (nevirapine): 80
- fold change of IC50 against reference virus (zidovudine): 2
- fold change of IC50 against reference virus (didanosine): 6.4

Test System: HIV-1 isolate 908 (reverse transcriptase changes: K102Q S162C K277R I293V R358K V435I S468P K550G, study 16)
- fold change of IC50 against reference virus (nevirapine): 1
- fold change of IC50 against reference virus (zidovudine): 1
- fold change of IC50 against reference virus (didanosine): 1

Test System: HIV-1 isolate 947 (reverse transcriptase changes: V35T T39E S48T K122E K173A D177E T200A R211K V245R, study 99)
- fold change of IC50 against reference virus (nevirapine): 1
- fold change of IC50 against reference virus (zidovudine): 2
- fold change of IC50 against reference virus (didanosine): 0.9

Test System: HIV-1 isolate 991 (reverse transcriptase changes: K122E F214L A272P K277R A376T A400T D460N S468T H483Y K512Q S519N, study 72)
- fold change of IC50 against reference virus (nevirapine): 1
- fold change of IC50 against reference virus (zidovudine): 1
- fold change of IC50 against reference virus (didanosine): 1

Test System: HIV-1 isolate 994 (reverse transcriptase changes: K122E Y181C F214L A272P K277R M357T A376T A400T N447S D460N S468T S519N, study 13)
- fold change of IC50 against reference virus (nevirapine): 240
- fold change of IC50 against reference virus (zidovudine): 1
- fold change of IC50 against reference virus (didanosine): 0.9

Test System: HIV-1 isolate 1007 (reverse transcriptase changes: L74V K102Q V106A S162C T215Y K277R I293V R358K V435I S468P K550G, study 45)
- fold change of IC50 against reference virus (nevirapine): 30
- fold change of IC50 against reference virus (zidovudine): 2000
- fold change of IC50 against reference virus (didanosine): 8

Test System: HIV-1 isolate 1041 (reverse transcriptase changes: V35T E36A T39E S48T K122E D123G S162A K173A D177E T200A Q207E V245Q, study 99)
- fold change of IC50 against reference virus (nevirapine): 1
- fold change of IC50 against reference virus (zidovudine): 1
- fold change of IC50 against reference virus (didanosine): 1.1

— the supplement of paper PMC3578754
